Pooled drug test results. Numbers come from NIAID ChemDB, via PubChem.

All rows: cytotoxicity tests; cell line: MT-4; measure: CC50

Blank or dashed fields: not listed here.

smiles | method | value
O=C(NCCc1ccccc1)Nc1nc(C(F)(F)F)cs1 |  | >1 µg/mL
COc1cccc(N2CCN(CN3C(=O)/C(=N\c4ncc(Cc5cc(OC)c(OC)c(OC)c5)c(N)n4)c4cc(F)ccc43)CC2)c1 | MTT | 81.6 µg/mL
CCOCn1c(Cc2ccccc2)c(C(C)C)c(=O)[nH]c1=O | MTT | >100 µM
COc1cc(Cc2cnc(/N=C3\C(=O)N(CN4CCN(c5ccc([N+](=O)[O-])cc5)CC4)c4ccc(C)cc43)nc2N)cc(OC)c1OC |  | 47.96 µM
N#Cc1csc(NC(=O)NCCc2ccccc2)n1 |  | ~1 µg/mL
COc1cc(Cc2cnc(/N=C3\C(=O)N(CN4CCN(c5ccccn5)CC4)c4ccc(C)cc43)nc2N)cc(OC)c1OC |  | 119.6 µM
Cc1nc(CN2CCn3c(nc(C(=O)NCc4ccc(F)cc4)c(O)c3=O)C2(C)C)cs1 | microscopy | >1 µM
Cn1c(=O)cc(Oc2nc(Nc3ccc(C#N)cc3)nc(Oc3cc(=O)n(C)c4ccccc34)n2)c2ccccc21 | MTT | 79.48 µg/mL
Nc1ccn([C@H]2CS[C@@H](COC(=O)CCCCCNCCCCCNCc3ccccc3)O2)c(=O)n1 |  | >50 µM
COc1ccc(NC(=O)C2=C(C)NC(=O)C3C(N)=NN=C23)cc1 | MTT | 73.8 µg/mL
Cc1ccc(NC(=O)CSc2ncnn2-c2ccc(Cl)cc2Cl)c([N+](=O)[O-])c1 | MTT | 285.2 µM
CC(C)CCC[C@@H](C)[C@H]1CC[C@H]2[C@@H]3CC[C@H]4C[C@@H](CCC=C(c5cc(Cl)c(O)c(C(=O)O)c5)c5cc(Cl)c(O)c(C(=O)O)c5)CC[C@]4(C)[C@H]3CC[C@]12C |  | >125 µg/mL
O=C(O)CCCCCCCCCCCCCNC(=O)C(CO[C@@H]1O[C@H](CO)[C@H](O)[C@H](O)[C@H]1O)NC(=O)CCC(=O)O |  | >100 µM
O=C1NC(=O)C2C1[C@@H]1C=C[C@H]2C1=C(c1ccccc1)c1ccccc1 | MTT | 51 µM
Cn1c(=O)cc(Oc2nc(Nc3ccc(C#N)cc3)nc(Nc3nc4ccc([N+](=O)[O-])cc4s3)n2)c2ccccc21 | MTT | 69.28 µg/mL
CCOC(=O)c1c([N+](=O)[O-])c(-c2ccccc2)n(COCCO)c1C | MTT | >300 µM
CCC(O)C(N)C(=O)O |  | >750 µM
CC[C@@]1(O)C[C@H](O[C@H]2C[C@H](N(C)C)[C@H](O[C@H]3C[C@H](O)[C@H](O[C@H]4CCC(=O)[C@H](C)O4)[C@H](C)O3)[C@H](C)O2)c2c(cc3c(c2O)C(=O)c2c(O)cccc2C3=O)[C@H]1C(=O)OC |  | <0.1 µg/mL
CCOC(=O)c1c(Cl)c(-c2ccccc2)n(COCCO)c1C | MTT | 111 µM
COc1cc(Cc2cnc(/N=C3\C(=O)N(CN4CCN(c5c(F)cc6c(=O)c(C(=O)O)cn(C7CC7)c6c5OC)CC4C)c4ccc(F)cc43)nc2N)cc(OC)c1OC | MTT | 91.6 µg/mL
COC(=O)N[C@H](C(=O)NN(CCc1ccccc1)CC[C@@](O)(Cc1ccccc1)C(=O)N[C@H]1c2ccccc2C[C@H]1O)C(C)(C)C | XTT | >10 µM
O=C(O)CCCCCCCCCCCCCNC(=O)C(CO[C@@H]1O[C@H](CO)[C@H](O)[C@H](O)[C@H]1O)NC(=O)CCCCCCCCCCC(=O)O |  | >100 µM
CCCCCCCCCCCCCC(=O)NCC(OCC)OCC |  | >40 µM
CCCCCCCCCCCCCCCC(=O)OCOc1c2n(cc(C(=O)NCc3ccc(F)cc3F)c1=O)[C@@H]1CN(C2=O)[C@@H](C)CC[C@]12CC(C)=NO2 | luminescence | 50 µM
CN1Cn2c(nc(C(=O)NCc3ccc(F)cc3)c(O)c2=O)C12CCCCC2 | microscopy | >1 µM
O=C1c2ccccc2C(=O)c2c1ccc(O)c2O |  | 79 µg/mL
CN(C)CCN1C(=O)C2C3C=CC(C3=C(c3ccccc3)c3ccccc3)C2C1=O | MTT | 26 µM
O=C(CCCCCNCCCCNCc1ccccc1)Nc1ccn([C@H]2CS[C@H](COC(=O)CCCCCNCCCCNCc3ccccc3)O2)c(=O)n1 |  | >50 µM
CN1CCn2c(nc(C(=O)NCc3ccc(F)cc3)c(O)c2=O)C1CS(C)(=O)=O | microscopy | >10 µM
CC(C)(C)OC(=O)N(CCCCCCOC(=O)OC[C@H]1O[C@@H](n2ccc(N)nc2=O)CS1)CCCCCN(Cc1ccccc1)C(=O)OC(C)(C)C |  | 10 µM
C=C1[C@H](n2cnc3c(N)ncnc32)O[C@@H]1CO |  | 11 µg/mL
COc1cc(Cc2cnc(/N=C3\C(=O)N(CN4CCN(c5cccc(C(F)(F)F)c5)CC4)c4ccc(C)cc43)nc2N)cc(OC)c1OC |  | 106.2 µM
CN(C)C(=O)C(=O)N1CCN2CCn3c(nc(C(=O)NCc4ccc(F)cc4)c(O)c3=O)C1C2 | microscopy | >1 µM
COc1cc(Cc2cnc(/N=C3\C(=O)N(CN4CCNCC4)c4ccc(C)cc43)nc2N)cc(OC)c1OC |  | 94.2 µM
COc1cc2c(cc1OC)C1=NOC(c3cccs3)C1C2 | MTT | 11.74 µM
Nc1ncnc2c1ncn2[C@@H]1O[C@H](CO)[C@H]1CO |  | >30 µg/mL
CCCCCCCCCCCCCCCCOC(=O)OCOc1c2n(cc(C(=O)NCc3ccc(F)cc3F)c1=O)[C@@H]1CN(C2=O)[C@@H](C)CC[C@]12CC(OC)=NO2 | luminescence | 50 µM
CC1=[N+](C)N(c2ccccc2)C(=O)C1Nc1nc(Nc2ccc(C#N)cc2)nc(Oc2cc(=O)n(C)c3ccccc23)n1 | MTT | >125 µg/mL
COc1cc2c(cc1OC)C1=NOC(c3ccccc3)C1C2 | MTT | 10.76 µM
Nc1ncnc2c1ncn2[C@@H]1O[C@H](CO)[C@@H]1O |  | >10 µg/mL
O=[N+]([O-])c1cc(-c2ccccc2)n(COCCO)c1-c1ccccc1 | MTT | 46 µM
O=C(CCCCCNCCCCCCNCc1ccccc1)Nc1ccn([C@H]2CS[C@@H](CO)O2)c(=O)n1 |  | 10 µM
O=C(O)CCCCCCCCCCCCC(=O)NC(CO[C@@H]1O[C@H](CO)[C@H](O)[C@H](O)[C@H]1O)C(=O)NCCOS(=O)(=O)O |  | >100 µM
CCOCn1c2c(c(=O)[nH]c1=O)COC2c1ccccc1 | MTT | 100 µM
CC1=C(C(=O)Nc2cccc(Cl)c2Cl)C2=NN=C(N)C2C(=O)N1 | MTT | 19.8 µg/mL
CC(C)(C)OC(=O)N(CCCCCCN(Cc1ccccc1)C(=O)OC(C)(C)C)CCCCCC(=O)OC[C@H]1O[C@@H](n2ccc(N)nc2=O)CS1 |  | 10 µM
COc1cc(Cc2cnc(/N=C3\C(=O)N(CN4CCN(Cc5ccccc5)CC4)c4ccc(F)cc43)nc2N)cc(OC)c1OC | MTT | 139.3 µg/mL
C[C@H](COc1cc(N)nc(N)n1)OCP(=O)(O)O |  | ≥100 µg/mL
COc1cc(Cc2cnc(/N=C3\C(=O)N(CN4CCN(c5ccccc5)CC4)c4ccc(F)cc43)nc2N)cc(OC)c1OC | MTT | 84.7 µg/mL
CCOCn1c(C(O)C2=CCCCC2)c(CC)c(=O)[nH]c1=O | MTT | >100 µM
COc1cc(Cc2cnc(/N=C3\C(=O)N(CN4CCN(c5cc6c(cc5F)c(=O)c(C(=O)O)cn6C5CC5)CC4)c4ccc(F)cc43)nc2N)cc(OC)c1OC | MTT | 141.6 µg/mL
COc1ccc(C2ON=C3c4cc(OC)c(OC)cc4CC32)cc1 | MTT | 125 µM
O=C1[C@@H](Cc2ccccc2)NC(=S)N1c1ccccc1 |  | >100 µg/mL
CC(C)(C)OC(=O)N(CCCCCCOC[C@H]1O[C@@H](n2ccc(N)nc2=O)CS1)CCCCCN(Cc1ccccc1)C(=O)OC(C)(C)C |  | 5 µM
Nc1ncnc2c1ncn2[C@H]1C[C@@H](CO)O1 |  | 8 µg/mL
COc1cc([N+](=O)[O-])ccc1NC(=O)C1=C(C)NC(=O)C2C(N)=NN=C12 | MTT | 86.7 µg/mL
CC(C)(C)OC(=O)N(CCCCCC(=O)Nc1ccn([C@H]2CS[C@@H](CO)O2)c(=O)n1)Cc1ccccc1 |  | 100 µM
Cc1ccc(-c2c([C@H](OC(C)(C)C)C(=O)O)c(C)nc3ccccc23)cc1C |  | 76 µM
CCCCCCCCOC(=O)OCOc1c2n(cc(C(=O)NCc3ccc(F)cc3F)c1=O)[C@@H]1CN(C2=O)[C@@H](C)CC[C@]12CC(OC)=NO2 | luminescence | 50 µM
Cc1ccc2nc(Nc3nc(Nc4ccc(C#N)cc4)nc(Oc4cc(=O)n(C)c5ccccc45)n3)sc2c1 | MTT | 3.88 µg/mL
CCCCCCCCCCCCCCCCCCOC(=O)Oc1c2n(cc(C(=O)NCc3ccc(F)cc3F)c1=O)[C@@H]1CN(C2=O)[C@@H](C)CC[C@]12CC(OC)=NO2 | luminescence | 50 µM
CC1=C(C(=O)Nc2cccc(C)c2)C2=NN=C(N)C2C(=O)N1 | MTT | 68.3 µg/mL
CC=CC(=O)c1c(CC)c(=O)[nH]c(=O)n1COCC | MTT | 30 µM
CCOC(=O)c1c(Cl)c(-c2ccccc2)n(COCCOC(C)=O)c1C | MTT | 82 µM
COc1ccc2nc(Nc3nc(Nc4ccc(C#N)cc4)nc(Oc4cc(=O)n(C)c5ccccc45)n3)sc2c1 | MTT | 72.13 µg/mL
CCCCCCCCCCCC(=O)OCOc1c2n(cc(C(=O)NCc3ccc(F)cc3F)c1=O)[C@@H]1CN(C2=O)[C@@H](C)CC[C@]12CC(C)=NO2 | luminescence | 50 µM
COc1cc(Cc2cnc(/N=C3\C(=O)N(CN4CCN(c5ccc(Cl)cc5)CC4)c4ccc(C)cc43)nc2N)cc(OC)c1OC |  | 49.2 µM
COc1cc2c(cc1OC)C1=NOC(c3cccc(N)c3)C1C2 | MTT | 13.83 µM
CCn1cc(C(=O)O)c(=O)c2c(F)c(N3CCN(CN4C(=O)/C(=N\c5ncc(Cc6cc(OC)c(OC)c(OC)c6)c(N)n5)c5cc(C)ccc54)C(C)C3)c(F)cc21 |  | 92.6 µM
O=C(CCCCCNCCCCNCc1ccccc1)Nc1ccn([C@@H]2CS[C@@H](CO)O2)c(=O)n1 |  | >50 µM

The last 6 rows once more:

smiles,method,value
COc1ccc2nc(Nc3nc(Nc4ccc(C#N)cc4)nc(Oc4cc(=O)n(C)c5ccccc45)n3)sc2c1,MTT,72.13 µg/mL
CCCCCCCCCCCC(=O)OCOc1c2n(cc(C(=O)NCc3ccc(F)cc3F)c1=O)[C@@H]1CN(C2=O)[C@@H](C)CC[C@]12CC(C)=NO2,luminescence,50 µM
COc1cc(Cc2cnc(/N=C3\C(=O)N(CN4CCN(c5ccc(Cl)cc5)CC4)c4ccc(C)cc43)nc2N)cc(OC)c1OC,,49.2 µM
COc1cc2c(cc1OC)C1=NOC(c3cccc(N)c3)C1C2,MTT,13.83 µM
CCn1cc(C(=O)O)c(=O)c2c(F)c(N3CCN(CN4C(=O)/C(=N\c5ncc(Cc6cc(OC)c(OC)c(OC)c6)c(N)n5)c5cc(C)ccc54)C(C)C3)c(F)cc21,,92.6 µM
O=C(CCCCCNCCCCNCc1ccccc1)Nc1ccn([C@@H]2CS[C@@H](CO)O2)c(=O)n1,,>50 µM

Conditions beyond the fields shown may differ between rows. CCn: concentration that lowers growth or viability of the cells by n%.